Results of unrelated studies side by side (data: NIAID ChemDB).

Common to all: target-level tests; species: Hepatitis C virus; protein: Nonstructural protein 5B; read-out: IC50

Conditions beyond the fields shown may differ between rows.

SMILES,read by,setting,strain or isolate,result
O=C1CC(=O)OC(CCc2nccs2)(C2CCCC2)C1,,,,>50 µM
Cc1nc(N)c2ncn([C@@H]3O[C@H](COC(=O)c4ccc(S(=O)(=O)F)cc4)[C@@H](O)[C@H]3O)c2n1,,,,>1000 µM
Cc1nc(N)c2ncn([C@@H]3O[C@H](COC(=O)c4ccc(S(=O)(=O)F)cc4)[C@@H](O)[C@H]3O)c2n1,,,,>1000 µM
C[C@@]1(O)[C@H](O)[C@@H](COP(=O)(O)OP(=O)(O)OP(=O)(O)O)O[C@H]1n1ccc2c(N)ncnc21,nucleotide incorporation,,GT-1b Con1,0.2 µM
O=C(OC[C@H]1O[C@@H](n2cnc3c(=O)[nH]cnc32)[C@H](O)[C@@H]1O)c1ccc(S(=O)(=O)F)cc1,,,,80 µM
CC(C)Oc1ccc(CCC2(C3CCCC3)CC(=O)CC(=O)O2)cc1Cl,,,,<1 µM
NC(=O)c1ncn([C@@H]2O[C@H](COC(=O)c3ccc(S(=O)(=O)F)cc3)[C@@H](O)[C@H]2O)n1,,,,1000 µM
O=C(Nc1ccc2[nH]ncc2c1)c1cc(NCc2ccccn2)c(F)cc1F,,,,1 µg/mL
O=C1CC(=O)OC(CCc2ccc(F)c(Cl)c2)(C2CCCC2)C1,,,,1–10 µM
C[C@@]1(O)[C@H](O)[C@@H](COP(=O)(O)OP(=O)(O)OP(=O)(O)O)O[C@H]1c1ccc2c(N)ncnn12,nucleotide incorporation,,GT1a,0.57 µM
Cc1cc(SC2=C(O)CC(CCc3ccc(O)cc3)(C3CCCC3)OC2=O)c(C(C)(C)C)cc1N,,,,<1 µM
O=C(Nc1ccc2cn[nH]c2c1)c1cc(N2CCN(CCO)CC2)c(F)cc1F,,,,>10 µg/mL
CCSc1ccc(CCC2(C3CCCC3)CC(=O)CC(=O)O2)cc1,,,,1–10 µM
CC1=NCCN1c1cc(C(=O)Nc2ccc3[nH]ncc3c2)c(F)cc1F,,,,1–10 µg/mL
O=c1ccn([C@@H]2O[C@H](CO)[C@]3(CO)C[C@]23F)c(=O)[nH]1,nucleotide incorporation,genotype 1b,,>100 µM

The last 2 rows once more:

SMILES,read by,setting,strain or isolate,result
CC1=NCCN1c1cc(C(=O)Nc2ccc3[nH]ncc3c2)c(F)cc1F,,,,1–10 µg/mL
O=c1ccn([C@@H]2O[C@H](CO)[C@]3(CO)C[C@]23F)c(=O)[nH]1,nucleotide incorporation,genotype 1b,,>100 µM

a–b is a range or a potency band. ICn: concentration for n% inhibition. An empty or dashed field is not shown.